Taken from: PubChem BioAssay AID504761 (Drosophila RNAi Screening Center, 2011)
Screen: 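Fly genes whose silencing reduces dengue virus type 2 infection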 (primary screen). System: D.Mel-2 cells from Drosophila. Knock-down reagent: long dsRNA against Drosophila genes. Challenge: infection with dengue virus type 2; dose and infection time not stated. Measurement: 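Per well on two replicate plates, imaging gave the percent of cells positive for viral envelope protein, ranked by infection, and a nuclear count of cells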. Scale: infection score: higher = more virus-infected cells. Active means: 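Low infection ranks in the two replicates (chance level up to 0.065) followed by a retest with a 1.5-fold or larger significant decrease, p below 0.05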. Meaning of the calls: active = confirmed: knock-down lowers infection; inactive = not picked or not confirmed.
The deposit covers about 22,000 reagents; below is a random part of those with a known target gene and a result. In the full data, 116 (0.52%) got an active call. 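Calls depend on retest data that are not deposited; infection was ranked per plate without normalising between plates; the unit of the infection score is not given.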 Unmarked entries are inactive. Reagents against one gene are numbered here. Not all columns of the deposit are shown. The record does not give: the amount of reagent, the time to read-out.

Against CG33158 (GeneID 39834) #1, the entry reads infection score, replicate 1 = 20.2.
Silencing of CG33158 (GeneID 39834) #2 resulted in: infection score, replicate 1 = 1.29.
CG33158 (GeneID 39834) #3 gave infection score, replicate 1 = 1.59.
CG34445 (GeneID 5740761) showed infection score, replicate 1 = 0.5.
After knock-down of CG31013 (GeneID 326111) the results were infection score, replicate 1 = 14.8.
Spn100A (GeneID 43642) gave infection score, replicate 1 = 1.69.
Against Hsc70-4 (GeneID 41840) #1, the values are infection score, replicate 1 = 4.32.
Depletion of Hsc70-4 (GeneID 41840) #2 resulted in: infection score, replicate 1 = 24.5.
With knock-down of Pdk1 (GeneID 38017) #1 the results were infection score, replicate 1 = 5.53.
Against Pdk1 (GeneID 38017) #2, the values are infection score, replicate 1 = 2.34.
CR31427 (GeneID 43464) #1 scored infection score, replicate 1 = 5.8.
CR31427 (GeneID 43464) #2 gave infection score, replicate 1 = 6.5.
Knock-down of VepD (GeneID 117331) #1 resulted in: infection score, replicate 1 = 4.99.
Depletion of VepD (GeneID 117331) #2 came out at: infection score, replicate 1 = 33.5.
Depletion of l(2)dtl (GeneID 46326) #1 came out at: infection score, replicate 1 = 23.2.
For l(2)dtl (GeneID 46326) #2, the entry reads infection score, replicate 1 = 5.54.
With knock-down of Cdc23 (GeneID 35315), the record shows infection score, replicate 1 = 15.9.
14-3-3zeta (GeneID 36059) #1 scored infection score, replicate 1 = 19.1.
Knock-down of 14-3-3zeta (GeneID 36059) #2 resulted in: infection score, replicate 1 = 4.68.
After knock-down of Dus4 (GeneID 35179), the record shows infection score, replicate 1 = 10.
For Dic61B (GeneID 38020) the deposit lists infection score, replicate 1 = 6.13.
